Molecular target: SARS-CoV-2 (COVID-19) S Protein RBD, His Tag (SARS-CoV-2, UniProt P0DTC2 319-537)
Test: BLI (Octet), LCB3 binding to anchored Spike RBD

B1: I-25 (designed binder)
chain: NDDELLMLVTDLVAEALLFAKDEEIKKRVFTLFELADKAYKNNDRDTLSKVVSELKELLERLQSGGSEQKLISEEDLGSGGGGSLPETGGGGSGGSSHHHHHHHHHH
notes: also called P228; LCB3
B1: no binding.

— patent US20240335555A1, “TECHNOLOGIES FOR PREVENTING OR TREATING INFECTIONS” (BIOHAVEN THERAPEUTICS, published 2024)
